# Library screen at single concentrations

A: 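Phenotypic screen: M. tuberculosis growth, glucose 7H9 medium, 3 days; the read-out is not stated. Concentration: 50 µM. Direction is inferred from retests: higher values go with more growth inhibition. About 69,000 compounds were tested under these conditions; 1.1% (about 760) showed 50% or more at least once.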
B: 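Growth of Mycobacterium tuberculosis over 4 days (cholesterol / DPPC medium with tyloxapol); the read-out is not stated. Compounds at 50 µM. The record gives no direction; compounds that gave an IC50 in retests scored well above the rest, so higher reads as more growth inhibition. Of about 69,000 compounds tested this way, about 370 (0.54%) reached 50% or more in at least one test.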

The filed quantity is “Percent Effect” (%).
How 0% and 100% were set is not recorded. Most values in the screen are low, and negative values occur.
The entries come from a sample that favours strong results.
Two or more numbers in one place are separate tests of the same structure; such repeats can differ widely.
A dash means the value is not listed here; it may have been measured.

| structure | A | B |
|---|---|---|
| `CCOCc1ccc(CNc2cncc(-n3cccn3)n2)cc1` | - | 20.78 |
| `CC1CCCCN1C(=O)COCc1nc(-c2ccncc2)no1` (stereo not given) | 124.3 | - |
| `COc1ccccc1-c1ncc(CN2C[C@@H](N(C)C)[C@H](C(C)C)C2)s1` | 73.71 | - |
| `CO[C@@H]1CCN(c2ncccn2)[C@H]1Cc1ccccc1` | -2.297 & 4.418 | - |
| `O=C(CCCn1cnnn1)N1CCC(c2ccncc2)CC1` | - | -19.66 |
| `COc1cc(C(=O)Nc2nc(C)no2)ccc1OC(F)F` | 21.45 | - |
| `CC(C)COc1cncc(N(C)C2CCN(c3ncccn3)CC2)n1` | 66.72 | 52.19 |
| `COc1cc(Oc2ncccc2C(F)(F)F)ccc1CN1CCCC1` | 54.89 & 36.96 | - |
| `O=C(c1ccc(N2CCCC2)nn1)N1CCCC(n2cccn2)C1` (stereo not given) | 6.312 | - |
| `Cc1cc(SCC(N)=O)nc(-c2ccc(F)cc2)n1` | 7.479 & -1.321 | - |
| `Clc1ccc(C2(CNC3=NCCN3)CC2)cc1.I` | 32.26 | - |
| `CNC(=O)c1ccc(CNC(=O)c2ccc(Cl)cc2F)cc1` | -14.18 | - |
| `NS(=O)(=O)CC1CCN(c2ncccc2C(F)(F)F)CC1` | -16.95 | -11.74 |
| `Cc1ccc2nc(-c3cnc(N)nc3)c(C)c(C(=O)N(C)C)c2c1` | - | 52.5 |
| `COc1ccc(NC(=O)CSC(F)(F)F)cn1` | 9.553 | -11.92 |
| `Cc1ccc(CNC(c2ccccc2)c2nccn2C)cc1C` (stereo not given) | 39.82 | - |
| `Fc1ccc(NCc2ncc[nH]2)cc1Br` | - | 2.256 & 6.913 |
| `CSCC(C)(O)CNc1cccc(F)c1C#N` (stereo not given) | -9.115 | 5.769 |
| `N[C@@H]1CCN(Cc2cc(-c3ccccc3OC(F)(F)F)no2)C[C@H]1O` | 29.44 | - |
| `CN(CC1(C)COC1)C(=O)c1cc(-c2ccnn2C)nc2ccccc12` | - | -11.75 & 7.419 |
| `Cc1cc(NC(=O)CNC(C)(C)c2ccc3c(c2)OCCO3)no1` | -11.43 & 3.215 | - |
| `NC(=O)CNC(c1ccccc1)c1ccccc1` | -11.07 & -2.807 | - |
| `Cc1ncsc1C(=O)N(C)Cc1ccc(Br)o1` | -30.02 | - |
| `[H][C@]12CC[C@]([H])(CN(S(C)(=O)=O)C1)N(C(=O)CCc1n[nH]c3c1CCCC3)C2` | -11.95 | - |
| `N#Cc1ccc(C(=O)NCCCNc2ccc(C(F)(F)F)cn2)cc1` | 19.44 | 29.3 |
| `CCOc1cccc(CNc2ccccc2OC)c1O` | -13.62 | - |
| `COc1cc(NC(=O)NCCO)ccc1N1CCOC1=O` | 16.41 | - |
| `Cc1cnn(CCCOc2ccc3c(c2)OCO3)c1` | 37.46 & 27.76 | 35.24 |
| `O=C(CCN1CCCN(c2nccs2)CC1)Nc1ccccc1` | -28.67 | - |
| `CCc1nc(NCc2ccccn2)c2c(n1)c(C)nn2C` | 0.9907 | 3.373 |
| `CC(=O)Nc1ccc(/C=C/c2ncc(C(=O)O)s2)cc1` | - | -6.63 |
| `COc1ccnc(NCC2CN(C3CC3)CCO2)n1` (stereo not given) | 29.69 | - |
| `Cc1noc(NC(=O)c2ccc(F)cc2)n1` | 36.12 | -4.074 |
| `Cc1noc(CCCC(=O)N2CCCCC2c2nccs2)n1` (stereo not given) | - | -35.45 |
| `CC1CCN(C(=O)C2CCN(c3ccc(Cl)cc3C#N)CC2)CC1` | 13.59 & 26.85 | - |
| `CN(Cc1nc(Cc2cccc(C(F)(F)F)c2)no1)C1CCCCC1` | 14.71 & 56.49 | - |
| `Cc1nn(-c2ccccc2)nc1C(=O)NCC(c1ccco1)N(C)C` (stereo not given) | -12.97 | -17.33 |
| `[H][C@@]12CCCO[C@]1([H])[C@H](NC(=O)CC1CC1)CN(Cc1ccc(OC)cc1)C2` | - | -7.998 |
| `COCCC1(CNC(=O)NCC2CCC2)CCC1` | - | 23.64 |
| `Cc1nc(COCc2cnc3n2CCN(C2CCC2)C3C)cs1.O=C(O)C(F)(F)F` (stereo not given) | 27.19 | - |
| `CCOC(=O)N1CCN(C(=O)c2cc(-c3ccc(C)cc3)on2)CC1` | 39.05 | - |
| `COc1ccc(-c2noc(C3CC(C(C)C)=NO3)n2)cc1` (stereo not given) | 39.44 | - |
| `CNC(=O)c1[nH]nc2ccc(I)cc12` | - | 8.702 |
| `[H][C@]12CC[C@]([H])(CN(Cc3cscn3)C1)N(Cc1cc(CC(C)C)[nH]n1)C2` | 50.1 | - |
| `Cc1ccc(S(=O)(=O)NC(C)(C)CN)c(F)c1.Cl` | 25.19 & 2.006 | - |
| `CN(CCCOc1ccccc1)C(=O)c1csc(-c2nnc[nH]2)n1` | - | 0.3459 & 51.78 |
| `CCOc1nnc(CN2CCN(CCOC)CC2)s1` | - | -8.32 & -17.38 |
| `CCc1nnc2n1CCN(C(C(=O)NC1CC1)c1ccccc1)C2` (stereo not given) | - | 97.1 |
| `COc1cc2cc3c(nc2cc1OC)OCCN(Cc1ccco1)C3` | 6.118 | - |
| `CC(C)[C@@H]1CN(C(=O)NCc2ccco2)C[C@H]1NS(=O)(=O)N(C)C` | - | -22.59 |
| `CN(C)S(=O)(=O)c1ccc(CNC(=O)C2CC2)cc1` | - | -2.929 |
| `[H][C@]12CCN(C(=O)c3ccccc3C)C[C@@]1([H])OCCN(c1ncccn1)C2` | 89.31 | - |
| `CO[C@@H]1CCN(Cc2nccs2)C[C@@H]1Cc1cccc(C)c1.O=C(O)C(F)(F)F` | 32.61 | 22.81 |
| `CC1(C)Cc2c(cnn2-c2cccc(F)c2)C(NC2CCSCC2)C1` (stereo not given) | 13.23 & 14.72 | - |
| `CN1N=C(C(=O)N2CCCC(CCc3c(F)cccc3F)C2)CCC1=O` (stereo not given) | 17.83 | 12.86 |
| `COCCCSc1ccc(NCc2cscn2)cc1` | 26.24 & 31.18 | - |
| `Cl.O=c1c2sccc2nc2n1CCN(Cc1ccsc1)CC2` | 9.027 | 11.23 |
| `O=C(NCc1csc(Br)c1)c1ccc(=O)[nH]n1` | -21.68 | -20.51 |
| `CCO[C@H]1CO[C@@]2(CCN(Cc3ccc4c(c3)OCO4)C2)C1.O=C(O)C(F)(F)F` | - | -3.024 |
| `CNS(=O)(=O)CC(=O)N(Cc1c(F)cccc1Cl)C1CC1` | 16.26 | -6.095 |
| `O=C(NCCNc1ncccn1)NCCSC(F)(F)F` | 0.9432 & -10.58 | -8.081 |
| `O=C1Nc2ccccc2CN(C/C=C/c2ccccc2)C12CCNC2` (stereo not given) | 56.39 | - |
| `N#CC1(C(=O)NCCCNc2ccc(C(F)(F)F)cn2)CCCC1` | 109.7 | 92.99 |
| `Cc1nc(NCCSc2cnn[nH]2)c2c(C)noc2n1` | - | 87.3 |
| `Cn1ncnc1NCc1ccccc1Cl` | 14.21 | - |

Some entries from above, unchanged:

* CC(=O)Nc1ccc(/C=C/c2ncc(C(=O)O)s2)cc1 | B: -6.63%
* [H][C@]12CC[C@]([H])(CN(S(C)(=O)=O)C1)N(C(=O)CCc1n[nH]c3c1CCCC3)C2 | A: -11.95%
* CCOc1nnc(CN2CCN(CCOC)CC2)s1 | B: -8.32% & -17.38%
* Cc1nc(COCc2cnc3n2CCN(C2CCC2)C3C)cs1.O=C(O)C(F)(F)F (stereo not given) | A: 27.19%
* COCCCSc1ccc(NCc2cscn2)cc1 | A: 26.24% & 31.18%
* Cc1ccc2nc(-c3cnc(N)nc3)c(C)c(C(=O)N(C)C)c2c1 | B: 52.5%
* CCOC(=O)N1CCN(C(=O)c2cc(-c3ccc(C)cc3)on2)CC1 | A: 39.05%
* O=C(NCCNc1ncccn1)NCCSC(F)(F)F | A: 0.9432% & -10.58%; B: -8.081%

Measurements from “University of Dundee, Small-Polar-MMV Screening Library” (2021), ChEMBL document CHEMBL3988442.